Measurements reported in publication doi:10.1101/809392.
The exact form of at least one protein or probe is not confirmed.

Test system: UmuDAb full-length
Experiment: EMSA
Conditions: 25 nM DNA, 100 ng salmon sperm DNA

“TGTCGGGAGATAGCATACCAAAGCTGTGAAAAAACACTTATAGATAACTTTGTGGATAACTCAAAAAACAAACACTTGAGTGAATTTAAATTTAGTGAAGAAATAATTTGTTTAATATTCATACATAGGAAATATGAATAGATTATGACATTTAAGAACAATAAATAGATAATAAAAATACCTGAAAATTCAAAGATTAATAAAATGCAACAAAACA (double strand) [bfmR promoter probe]”: binds.
